Consider one molecule from PMC6242839 (Nature Communications, 2018).

The assay has as its system B. cereus. Description: Resistance development by serial passage on gradient concentration. Particulars: after 15 daily serial passages.

`CCCCCCCCCCCCO[C@H]1C[C@H](O)[C@@H](O)[C@H](C)O1` [Compound 1]: the “Resistance development (change of MIC and MBC)” value was “No alteration of MIC and MBC values”.
